Publication PMC7102498
Construct, isoform or probe ends are uncertain for at least one entry.

The chains behind the UniProt entries cited, without tags or fusion partners. Where a name states a change or a piece, a line headed by the entry shows the natural chain unless it says otherwise.
UniProt P52076: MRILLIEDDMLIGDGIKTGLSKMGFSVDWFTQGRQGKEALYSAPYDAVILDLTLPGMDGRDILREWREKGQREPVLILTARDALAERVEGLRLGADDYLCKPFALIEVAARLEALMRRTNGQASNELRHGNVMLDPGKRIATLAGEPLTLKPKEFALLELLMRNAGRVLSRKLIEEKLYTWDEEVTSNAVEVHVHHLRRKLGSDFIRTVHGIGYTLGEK

Target: QseB (UniProt P52076)
Experiment: EMSA
Conditions: QseB 0-12 uM, recombinant protein, residues 1-219, protein details: His6 (pET28a), probe letters rebuilt from the primers and the genome

“ATTAGTTGCCCTGGCAAGTAATTAGTTGCAGGGGATAATATTGCCCAGGCAAGTATAAGTCAAATGAATGAATTGACCGATGCCACGTTTTGCTAAATCGGTTCAAGTTTTGTTCAATGCGATGCAAGGCTAGCTAAAGAGTGACACTTTATCCTTGTTTACCCCTTATACTTTTCGCTGATAACCCAGATACACAGGATAACAACCACCA (double strand) [p-marA promoter]”: binds (shift lost with 10-fold unlabeled probe).

“GTTTATTACTCCCTTTAATGTCTGTTTCCGAGCATTTAACAAGATAGTCCTTAACAACTTCTTAAGGGAAAAAAATAAAATTTAGTGCTGTACAGAGCGCGTTACAACACGGTTTACTGGCAGCAAATACGGTTATCGCAGGGATGAAAAA (double strand) [p-qseB promoter]”: binds.
